Test results taken from PubChem BioAssay AID2391 (Southern Research Specialized Biocontainment Screening …, 2010).
The list shows a part of the results. Entries with a potency or affinity are not part of this list. The source made the active and inactive calls. How the calls were made is not given here.

Assay: inhibition of RSV-induced cytopathic effect – HEp-2 cells, primary 10 µM value included (AID 2391)
Conditions: at 10 µM, stronger effect = higher value

Row | Compound | CPE inhibition
1 | O=C(OC1CN2CCC1CC2)c1ccccc1 (stereo unspecified) | inactive: -2.31%
2 | CCC(=O)N1C2C3N(C(=O)CC)C1C1N(C(=O)CC)C(C(N1C(=O)CC)N3C(=O)CC)N2C(=O)CC | inactive: 2.03%
3 | COC(=O)c1cc2c(s1)N=C(c1ccccc1)N(C)P2(=O)N1CCOCC1 (stereo unspecified) | inactive: 0.05%
4 | CC(=O)NC(SC(=S)N(CC(C)C)CC(C)C)C(Cl)(Cl)Cl (stereo unspecified) | inactive: 2%
5 | Cc1ccc(OP(=O)(Nc2ccccn2)Oc2ccc(C)cc2)cc1 | inactive: 7.29%
6 | Cc1ccccc1OP(=O)(Nc1ccccn1)Oc1ccccc1C | inactive: 1.75%
7 | CN(C)C(=O)Oc1noc2ccccc12 | inactive: 0.87%
8 | c1ccc(-c2nn[nH]n2)c(-c2nn[nH]n2)c1 | inactive: 0.05%
9 | Cc1ccc(NP(=O)(Oc2cccc(C)c2)Oc2cccc(C)c2)nc1 | inactive: 0.05%
10 | CCOC(=O)NC(Sc1ccccc1)C(Cl)(Cl)Cl (stereo unspecified) | inactive: 3.94%
11 | CCNC(=S)/N=C(\N)N[N+](=O)[O-] | inactive: 0.89%
12 | O=C(NC1CCS(=O)(=O)C1)NP(=S)(Oc1ccccc1)Oc1ccccc1 (stereo unspecified) | inactive: -0.27%
13 | Cc1ccccc1CN(C)C(=O)COC(=O)C(O)(c1ccccc1)c1ccccc1 | inactive: 1.55%
14 | C[C@H]1OP(=O)(Oc2ccccc2)C[C@@H]2O[C@@H]21 (stereo partly specified) | inactive: 2.8%
15 | C[C@@H]1C=CCP(=O)(Oc2ccccc2)O1 (stereo partly specified) | inactive: 0.39%
16 | CC(=O)c1ccc(N2CC2c2ccncc2)cc1 (stereo unspecified) | inactive: 0.38%
17 | CC(=O)Nc1ccc([As](=O)(O)O)c(O)c1 | inactive: -0.94%
18 | CC(=O)Nc1ccc(Oc2c([N+](=O)[O-])cc([N+](=O)[O-])cc2[N+](=O)[O-])cc1 | inactive: 2.12%
19 | O=P1(Nc2nc3ccc(Cl)cc3s2)COc2ccccc2O1 (stereo unspecified) | inactive: 2.84%
20 | CCOc1ccc(C2=NCC(CBr)S2)cc1 (stereo unspecified) | inactive: 0.56%
21 | CC(C)(C)C(=O)NC(Sc1ccccc1)C(Cl)(Cl)Cl (stereo unspecified) | inactive: -1.65%
22 | CC(C)C(=O)NC(Sc1ccccc1)C(Cl)(Cl)Cl (stereo unspecified) | inactive: 1.75%
23 | O=P(Nc1nccs1)(c1ccccc1)c1ccccc1 | inactive: 0%
24 | c1nnnn1CCn1cnnn1 | inactive: 0.47%
25 | O=[As](O)(c1ccccc1)c1ccc(O)cc1 | inactive: -0.18%
26 | O=[N+]([O-])c1ccc(O)c(/C=N/Nc2ccc([N+](=O)[O-])cc2[N+](=O)[O-])c1 | inactive: -2.21%

Row | Compound | CPE inhibition
27 | CC(=O)NC(SC(=S)N(C)C)C(Cl)(Cl)Cl (stereo unspecified) | inactive: 1.1%
28 | O=[N+]([O-])c1ncn(CCn2cnc([N+](=O)[O-])n2)n1 | inactive: -0.04%
29 | O=C(OC1CN2CCC1CC2)c1cccc(Cl)c1 (stereo unspecified) | inactive: -0.6%
30 | C(Cc1nn[nH]n1)Cc1nn[nH]n1 | inactive: 1.12%
31 | Nc1ccc([As](=O)(O)c2ccc([N+](=O)[O-])cc2)cc1 | inactive: -0.32%
32 | O=P(Nc1ccccn1)(c1ccc(Br)cc1)c1ccc(Br)cc1 | inactive: 6.65%
33 | CN(C)C1(CNC(=O)c2ccc(Cl)c(S(N)(=O)=O)c2)CCCCC1 | inactive: -0.28%
34 | O=P(Nc1nc2ccccc2s1)(c1ccccc1)c1ccccc1 | inactive: 1.43%
35 | C[C@H]1OP(=O)(Oc2ccccc2)[C@H](O)[C@H](O)[C@H]1N=[N+]=[N-] (stereo partly specified) | inactive: 0.56%
36 | O=[N+]([O-])c1ncn(CCn2ncnc2[N+](=O)[O-])n1 | inactive: 1.53%
37 | CC(C)(C)C(=O)NC(Sc1ccncn1)C(Cl)(Cl)Cl (stereo unspecified) | inactive: -0.47%
38 | O=C(O)CNc1ccc([As](=O)(O)O)cc1 | inactive: 1.53%
39 | O=[N+]([O-])c1cccc(NC2=NCC(CBr)S2)c1 (stereo unspecified) | inactive: 1.95%
40 | O=C(Nc1cc([As](=O)(O)O)ccc1O)c1ccccc1 | inactive: -0.02%
41 | CCN(/C(=N/P(=O)(N1CCOCC1)N1CCOCC1)N1CCOCC1)c1ccc(OC)cc1 | inactive: 1.87%
42 | Nc1ccc([As](=O)(O)c2ccc(N)cc2)cc1 | inactive: 0.8%
43 | C[N+]1=C2C=CC=CC=C2SC12C([N+](=O)[O-])=CC([N+](=O)[O-])=C[C-]2[N+](=O)[O-] (stereo unspecified) | inactive: 2.06%
44 | CC1CCN(C(=O)Oc2c(Cl)cc(Cl)c3cccnc23)CC1 | inactive: 3.63%
45 | CC(C)=N/N=C(\N)N[N+](=O)[O-] | inactive: -1.06%
46 | CN(C)C(=O)OCCc1n(C)cc[n+]1C | inactive: 1.91%
47 | COc1ccc(C2=NCC(CBr)S2)cc1 (stereo unspecified) | inactive: 0.22%
48 | Cc1ccc(NP(=O)(Oc2ccccc2)Oc2ccccc2)nc1 | inactive: -0.02%
49 | CCc1nc2c(n1)c1c(non1O)c1c2no[n+]1[O-] | inactive: 5.49%
50 | O=[N+]([O-])c1cc([N+](=O)[O-])c(CCNc2ccccc2)c([N+](=O)[O-])c1 | inactive: -0.82%
51 | O=[N+]([O-])c1cccc2n[nH]nc12 | inactive: 1.05%
52 | CC(=O)N1C2C3N(C(C)=O)C1C1N(C(C)=O)C(C(N1C(C)=O)N3C(C)=O)N2C(C)=O | inactive: 0.46%

Row | Compound | CPE inhibition
53 | Oc1ccccc1CNc1ccccn1 | inactive: 0.42%
54 | O=C(NC(Sc1ccncn1)C(Cl)(Cl)Cl)c1ccccc1 (stereo unspecified) | inactive: 0.98%
55 | Cc1c2non([O-])c-2c(C)[n+](=O)[n+]1[O-] | inactive: -0.78%
56 | CC(C)CC(=O)NC(Sc1ccc(Cl)cc1)C(Cl)(Cl)Cl (stereo unspecified) | inactive: -0.12%
57 | CN(C(=O)Cc1ccc(Cl)c(Cl)c1)[C@H]1CCCC[C@H]1N1CCCC1 | inactive: -1.44%
58 | Cc1ccc(N/C(=N/P(=O)(N2CCOCC2)N2CCOCC2)N2CCOCC2)cc1 | inactive: 1.28%
59 | NC(=O)c1cc([N+](=O)[O-])cc([N+](=O)[O-])c1N | inactive: 2.38%
60 | CN1CCCC(OC(=O)C(c2ccccc2)c2ccccc2)C1 (stereo unspecified) | inactive: 1.61%
61 | Clc1ccc(Cl)c(NC2=NCC(CBr)S2)c1 (stereo unspecified) | inactive: -0.77%
62 | COc1ccccc1OP(=O)(Nc1ccc(C)cn1)Oc1ccccc1OC | inactive: 1.64%
63 | Cc1ccc(OP(=O)(Nc2nccs2)Oc2ccc(C)cc2)cc1 | inactive: 0.5%
64 | O=[N+]([O-])c1cc([N+](=O)[O-])c(CCN2CCOCC2)c([N+](=O)[O-])c1 | inactive: 2.46%
65 | Nc1cccc2ccc([As](=O)(O)O)cc12 | inactive: 6.23%
66 | CCN(N=Nc1nonc1N)c1nonc1N | inactive: 1.99%
67 | O=P(Nc1nc2ccc(Cl)cc2s1)(c1ccccc1)c1ccccc1 | inactive: 3.65%
68 | CC(=O)Nc1ccc([As](=O)(O)O)cc1 | inactive: 0.38%
69 | O=C(O)c1ccccc1[As](=O)(O)O | inactive: -2.02%
70 | Cc1cc(SC(NC(=O)c2ccc(F)cc2)C(Cl)(Cl)Cl)ncn1 (stereo unspecified) | inactive: 0.14%
71 | CCOP(=O)(Nc1ccccc1)OCC | inactive: 1.1%
72 | Cc1ccc(NP(=O)(Oc2ccccc2F)Oc2ccccc2F)nc1 | inactive: 0.34%
73 | CN(C(=O)Cc1ccc(Cl)c(Cl)c1)[C@H]1CCCC[C@@H]1N1CCCC1 | inactive: -1.98%
74 | ClCCSc1nnc(-c2cccnc2)o1 | inactive: 0.65%
75 | CC(C)NC(=O)NP(=O)(Oc1ccccc1)Oc1ccccc1 | inactive: -1.81%
76 | CCN(CC)C(=S)SC(NC=O)C(Cl)(Cl)Cl (stereo unspecified) | inactive: 1.74%
77 | O=[N+]([O-])c1cc([N+](=O)[O-])c(-c2ccn[nH]2)s1 | inactive: 2.41%
78 | C[As](=O)(O)c1cccc(C(=O)O)c1 | inactive: 2.87%

Row | Compound | CPE inhibition
79 | O=[As](O)(c1ccc(O)cc1)c1ccccc1O | inactive: 2.66%
80 | COc1cc(C(=O)NCC2(N3CCOCC3)CCCCC2)ccc1OCC(C)C | inactive: 0.08%
81 | Cc1ccc(OP(=O)(Nc2ccc([N+](=O)[O-])cn2)Oc2ccc(C)cc2)cc1 | inactive: 0.73%
82 | COc1ccc(N/C(=N/P(=O)(N2CCOCC2)N2CCOCC2)N2CCOCC2)cc1 | inactive: 1.07%
83 | O=C(OC1CN2CCC1CC2)C12CC3CC(CC(C3)C1)C2 (stereo unspecified) | inactive: -0.57%
84 | Cc1cc(=O)[nH]c(N[N+](=O)[O-])n1 | inactive: 0.28%
85 | COc1ccc2nc(NP(=O)(c3ccccc3)c3ccccc3)sc2c1 | inactive: -0.51%
86 | COc1cc(I)ccc1[As](=O)(O)O | inactive: 0.1%
87 | O=C(OC1CN2CCC1CC2)c1cccc([N+](=O)[O-])c1 (stereo unspecified) | inactive: 0.66%
88 | CCOC(=O)c1ccc(NC(=O)C(C)(CCl)SC)cc1 (stereo unspecified) | inactive: 0.79%
89 | CCC(C)N(CC(C)C)C(=S)SC(NC(C)=O)C(Cl)(Cl)Cl (stereo unspecified) | inactive: -2.93%
90 | COP1(=S)c2c(C)nn(CCC#N)c2N=C(c2ccc(F)cc2)N1C (stereo unspecified) | inactive: -0.88%
91 | O=C(COc1ccccc1)OC1CN2CCC1CC2 (stereo unspecified) | inactive: 1.49%
92 | O=C(Nc1ccncc1[N+](=O)[O-])c1ccc([N+](=O)[O-])cc1[N+](=O)[O-] | inactive: 3.5%
93 | CCOC(=O)Nc1cccc([As](=O)(O)O)c1 | inactive: 1.72%
94 | O=P(Nc1ccccn1)(c1cccc2ccccc12)c1cccc2ccccc12 | inactive: 6.64%
95 | Cc1cc(SC(NC=O)C(Cl)(Cl)Cl)ncn1 (stereo unspecified) | inactive: 1.8%
96 | O=[N+]([O-])c1ccc(Nc2ccc(Oc3ccc([N+](=O)[O-])cc3[N+](=O)[O-])cc2)c([N+](=O)[O-])c1 | inactive: 0.21%
97 | CCOC(=O)Nc1ccc([As](=O)(O)O)c(O)c1 | inactive: 0.14%
98 | Cc1cc(SC(NC(=O)c2ccccc2)C(Cl)(Cl)Cl)nc(C(C)C)n1 (stereo unspecified) | inactive: 1.37%
99 | O=P1(Nc2ncccn2)COc2ccccc2OC1 | inactive: 1.29%
100 | Nc1cccc([As](=O)(O)c2ccccc2)c1 | inactive: 1.1%
101 | Cc1ccc(OCC(=O)OC2CN3CCC2CC3)cc1 (stereo unspecified) | inactive: 0.4%
